Pooled drug test results. Numbers come from NIAID ChemDB, via PubChem.

Shared fields: tests in culture; organism: HIV-1

Lines come from different laboratories, so protocols vary.

SMILES | endpoint | method | cell line | changes | setting | strain or isolate | result
C=C(C)[C@]12C[C@@H](COC(C)=O)[C@@]34OC5(O[C@@H]1[C@@H]3[C@@H]1O[C@]1(CO)[C@@H](O)[C@@]1(O)[C@H]4[C@H]([C@H](C)[C@@H]1OC(=O)c1ccccc1)[C@H](C)CC(OC(=O)c1ccccc1)C(OC(C)=O)C(OC(=O)c1ccccc1)CC[C@H]5O)O2 | EC50 | p24 / ELISA | MT-4 |  |  | NL4-3 | 0.00025 µM
Cc1nc(CCCCCCC(O)c2ccccc2)n2nc(-n3ccnc3)ccc12 | EC50 | p24 | C8166 |  |  | RF | 0.004 µM
Cc1cccc(C)c1OCC(=O)N[C@@H](Cc1ccccc1)[C@@H](O)C[C@H](Cc1ccccc1)NC(=O)[C@H](C(C)C)N1CCCNC1=O | EC50 | PCR | Jurkat cells |  |  |  | 0.003 µM
C[C@H](Cn1cnc2c(N)ncnc21)OCP(=O)(OCOC(=O)OC1CCCC1)OCOC(=O)OC1CCCC1.O=C(O)/C=C/C(=O)O | EC50 | p24 | MT-4 |  |  | IIIB | >30 µM
COc1ccc(CN[C@@H](C(=O)N[C@H](C(=O)NCc2nc3ccccc3[nH]2)C(C)C)[C@H](O)[C@H](Cc2ccccc2)NC(=O)[C@@H](NC(=O)OCc2ccccc2)C(C)(C)C)cc1 | EC50 | p24 | Monocytes + Monocyte |  | clinical isolate | D747 | 0.023 µM
CS(=O)(=O)O.Cc1c(O)cccc1C(=O)N[C@@H](CSc1ccccc1)[C@H](O)CC1C[C@H]2CCCC[C@H]2C[C@H]1C(=O)NC(C)(C)C.O | EC50 | p24 / luminescence | MT-4 |  |  | NL4-3 | 0.0321 µM
CCc1c(C(=O)c2cc(C)cc(C)c2)n(CC2CC=CC2)c(=O)[nH]c1=O | EC50 | cytopathic effect / XTT | AA5 |  |  | IIIB | 0.009 µM
Cc1cn([C@H]2C[C@H](N=[N+]=[N-])[C@@H](CO)O2)c(=O)[nH]c1=O | EC50 | p24 / RT activity | Macrophage |  |  | ADA | 0.002 µM
Cc1cn([C@H]2C[C@H](C#N)[C@@H](CO)O2)c(=O)[nH]c1=O | EC90 | cytopathic effect | C8166 |  |  | CBL-1 | >100 µg/mL
Nc1ccn([C@H]2O[C@@H](CO)C=C2F)c(=O)n1 | EC50 |  | PBMC |  |  | xxBRU | <2.1 µM
C[C@@H](Cn1cnc2c(N)ncnc21)OCP(=O)(OCOC(=O)OCc1ccccc1)OCOC(=O)OCc1ccccc1.O=C(O)/C=C/C(=O)O | EC50 | p24 | MT-4 |  |  | IIIB | >30 µM
Cc1cn([C@H]2C=C[C@@H](CO)O2)c(=O)[nH]c1=O | EC50 | cytopathic effect / XTT | MT-2 | RT-K65R Y115F |  | Site-directed mutant | 12.06 µM
Nc1ncnc2c1ncn2CCOCP(=O)(OCOC(=O)OCc1ccccc1)OCOC(=O)OCc1ccccc1 | EC50 | p24 | MT-4 |  |  |  | >30 µM
Cc1nc(CCCCCCC(=O)c2ccccc2)n2nc(Cl)ccc12 | EC50 | syncytia | C8166 |  |  | RF | 0.08 µM
C[C@H](Cn1cnc2c(N)ncnc21)OCP(=O)(OCOC(=O)OC1CCCCC1)OCOC(=O)OC1CCCCC1 | EC50 | p24 | MT-4 |  |  |  | 17.5 µM
Cc1cn([C@H]2C[C@H](N=[N+]=[N-])[C@@H](CO)O2)c(=O)[nH]c1=O | EC50 | PCR | Jurkat cells |  |  |  | 3.4 µM
Cc1cc(C)nc(N2C(=O)CSC2c2c(Cl)ncnc2Cl)n1 | EC50 | MTT | TZM-bl |  |  | NL4-3 | 6.31 µM
Nc1nc(NC2CC2)c2ncn([C@H]3C=C[C@@H](CO)C3)c2n1 | EC50 | p24 / luminescence | MT-4 |  |  | NL4-3 | 1.51 µM
Nc1ccn([C@@H]2S[C@H](CO)C=C2F)c(=O)n1 | EC50 |  | PBMC | RT-M184V |  | 3TC-resistant (RT M184V) | <125 µM
O=C(CCCCCCc1ncc2ccc(Cl)nn12)c1ccccc1 | EC50 | cytopathic effect | MT-4 |  |  | RF | 1 µM
Nc1nc(NC2CC2)c2ncn([C@H]3C=C[C@@H](CO)C3)c2n1 | EC50 | cytopathic effect / XTT | MT-2 |  |  | HXB2-D WT | 0.43 µM
CC(C)CN(C[C@@H](O)[C@H](Cc1ccccc1)NC(=O)O[C@H]1CCOC1)S(=O)(=O)c1ccc(N)cc1 | EC50 | p24 / luminescence | MT-4 |  |  | NL4-3 | 0.0294 µM
Cc1cn([C@H]2C[C@H](N=[N+]=[N-])[C@@H](CO)O2)c(=O)[nH]c1=O | EC50 |  | CBMC |  |  | HXB2 | 0.007 µM
C/C=C(/C)C(=O)OC(C)(C)[C@@H]1Cc2c(ccc3ccc(=O)oc23)O1 | EC50 | p24 | H9 |  |  | IIIB | 4.6 µM
Cc1ccnc2c1NC(=O)c1cccnc1N2C1CC1 | EC50 | MTT | TZM-bl |  |  | NL4-3 | 1.64 µM
CC(=O)O[C@@H]1[C@H](OC(=O)CC(C)C)c2c(ccc3ccc(=O)oc23)OC1(C)C | EC50 | p24 | U-937 |  |  | IIIB | 1.5 µM
CC(C)(C)NC(=O)[C@@H]1CN(Cc2cccnc2)CCN1C[C@@H](O)C[C@@H](Cc1ccccc1)C(=O)CN1c2ccccc2C[C@H]1O.O=S(=O)(O)O | EC50 | p24 / luminescence | MT-4 |  |  | NL4-3 | 0.0254 µM
C=CCOC(=O)OCOP(=O)(COCCn1cnc2c(N)ncnc21)OCOC(=O)OCC=C | EC50 | p24 | MT-4 |  |  |  | >30 µM
Cc1nc(CCCCCCC(=O)c2ccccc2)n2nc(-n3ccnc3C)ccc12 | EC50 |  | MT-4 |  |  | RF | 0.7 µM
C/C=C(/C)C(=O)O[C@@H]1c2c(ccc3ccc(=O)oc23)OC(C)(C)[C@@H]1OC(C)=O | EC50 | p24 | H9 |  |  | IIIB | 4.6 µM
Cc1nc(CCCCCCC(O)c2ccccc2)n2nc(Cl)ccc12 | EC50 | cytopathic effect | MT-4 |  |  | RF | 0.86 µM
Nc1nc(=O)n([C@@H]2CS[C@H](CO)O2)cc1F | EC50 | p24 | MT-4 |  |  |  | 27.7 µM
CC(C)=CCN1Cc2cc(Cl)cc3[nH]c(=S)n(c23)C[C@@H]1C | EC50 |  | MT-4 | RT-D67N K70R T215Y K219Q L100I |  |  | <3 µM
c1cc(CN2CCCNCCNCCCNCC2)ccc1CN1CCCNCCNCCCNCC1 | EC50 | MTT | PM1 |  |  | NLAD8 | >50 µM
C=C(C)[C@]12C[C@@H](COC(C)=O)[C@@]34OC5(O[C@@H]1[C@@H]3[C@@H]1O[C@]1(COC(=O)c1ccccc1)[C@@H](O)[C@@]1(O)[C@H]4[C@H]([C@H](C)[C@@H]1O)[C@H](C)CC(OC(=O)c1ccccc1)C(OC(C)=O)C(OC(=O)c1ccccc1)CC[C@H]5O)O2 | EC50 | p24 / ELISA | MT-4 |  |  | NL4-3 | 0.0029 µM
Nc1ncnc2c1ncn2CCOCP(=O)(OCOC(=O)OC1CCCC1)OCOC(=O)OC1CCCC1.O=C(O)/C=C/C(=O)O | EC50 | p24 | MT-4 |  |  | IIIB | 3.51 µM
Cc1nc(CCCCCOCc2ccccc2)n2nc(Cl)ccc12 | EC50 | syncytia | C8166 |  |  | RF | 0.58 µM
C=CCOC(=O)OCOP(=O)(COCCn1cnc2c(N)ncnc21)OCOC(=O)OCC=C.O=C(O)/C=C/C(=O)O | EC50 | p24 | MT-4 |  |  | IIIB | >30 µM
CC(C)[C@H](NC(=O)OCc1ccccc1)C(=O)N[C@@H](Cc1ccccc1)[C@@H](O)[C@@H](NCc1ccc(Br)cc1)C(=O)N[C@H](C(=O)NCc1ccccc1)C(C)C | EC50 | MTT / p24 | MT-4 |  |  | IIIB | 0.147 µM

ECn: concentration that inhibits the pathogen or its effect by n%. Blank or dashed fields: not listed here.